Pooled drug test results. Numbers come from NIAID ChemDB, via PubChem.

All rows: tests on isolated targets; species: HIV-1; target: Protease

Fold resistance: result on the changed form divided by that on wild type.

compound,measure,changes,tested at,method,result
O=S1(=O)N(Cc2ccc(-c3cccs3)cc2)[C@H](COc2ccccc2)[C@H](O)[C@@H](O)[C@@H](COc2ccccc2)N1Cc1ccc(-c2cccs2)cc1,fold resistance,PR-V82A,-,-,8.37
Cc1cc(SC2=C(O)C[C@@](CCc3ccc(N)cc3)(C(C)C)OC2=O)c(C(C)(C)C)cc1CO,fold resistance,PR-G48V L90M,-,HPLC / absorbance,0.8
CC(C)[C@H](NC(=O)OCCN1CCOCC1)C(=O)N[C@@H](Cc1ccccc1)[C@H](O)[C@H](O)[C@H](Cc1ccccc1)NC(=O)[C@@H](NC(=O)OCCN1CCOCC1)C(C)C,inhibition,-,0.01 µM,fluorescence,33%
O=S1(=O)N(Cc2ccc(CO)cc2)[C@H](COc2ccccc2)[C@H](O)[C@@H](O)[C@@H](COc2ccccc2)N1Cc1ccc(CO)cc1,fold resistance,PR-G48V L90M,-,-,2.65
CC(C)[C@H](NC(=O)N(C)Cc1ccccn1)C(=O)N[C@@H](Cc1ccccc1)[C@H](O)[C@H](O)[C@H](Cc1ccccc1)NC(=O)[C@@H](NC(=O)N(C)Cc1ccccn1)C(C)C,fold resistance,PR-A71T V82A,-,HPLC,4
CC(C)[C@H](NC(=O)OCc1ccccc1)C(=O)NC(Cc1ccccc1)C(O)C(Cc1ccccc1)NC(=O)[C@@H](NC(=O)OCc1ccccc1)C(C)C,inhibition,-,0.01 µM,fluorescence,75%
COC(=O)c1ccc(CN2[C@H](COc3ccccc3)[C@H](O)[C@@H](O)[C@@H](COc3ccccc3)N(Cc3ccc(C(=O)OC)cc3)S2(=O)=O)cc1,fold resistance,PR-G48V L90M,-,-,1.13
CC(C)C(C(=O)N[C@@H](Cc1ccccc1)[C@@H](O)[C@H](O)[C@H](Cc1ccccc1)NC(=O)C(C(C)C)N(C)C)N(C)C,inhibition,-,0.005 µM,fluorescence,73%
CN1[C@H](COc2ccccc2)[C@H](O)[C@@H](O)[C@@H](COc2ccccc2)N(C)S1(=O)=O,fold resistance,PR-G48V L90M,-,-,4.93
CC(C)[C@H](NC(=O)N(C)Cc1ccccn1)C(=O)N[C@@H](Cc1ccccc1)[C@H](O)[C@H](O)[C@H](Cc1ccccc1)NC(=O)[C@@H](NC(=O)N(C)Cc1ccccn1)C(C)C,fold resistance,PR-R8Q,-,fluorescence,32.1
C/C(=N\O)c1cccc(CN2[C@H](COc3ccccc3)[C@H](O)[C@@H](O)[C@@H](COc3ccccc3)N(Cc3cccc(/C(C)=N/O)c3)S2(=O)=O)c1,fold resistance,PR-I84V,-,-,13.2
CC(C)[C@H](NS(=O)(=O)N(C)Cc1ccccn1)C(=O)N[C@@H](Cc1ccccc1)[C@H](O)[C@H](O)[C@H](Cc1ccccc1)NC(=O)[C@@H](NS(=O)(=O)N(C)Cc1ccccn1)C(C)C,inhibition,-,0.1 µM,fluorescence,60%
CC(C)[C@H](NC(=O)N(C)Cc1ccccn1)C(=O)N[C@@H](Cc1ccccc1)[C@H](O)[C@@H](O)[C@H](Cc1ccccc1)NC(=O)[C@@H](NC(=O)N(C)Cc1ccccn1)C(C)C,fold resistance,PR-R8Q,-,fluorescence,93.5
CC(C)CC(NC(=O)[C@@H](NC(=O)OCc1ccccc1)C(C)C)C(=O)C(F)(F)C(NC(=O)[C@@H](NC(=O)OCc1ccccc1)C(C)C)C(C)C,inhibition,-,0.001 µM,fluorescence,62%
CC(C)CN(C[C@@H](O)[C@H](Cc1ccccc1)NC(=O)[C@H](CC(N)=O)NC(=O)c1ccc2ccccc2n1)C(=O)NC(C)(C)C,fold resistance,PR-A71T V82A,-,HPLC,1.5
Cc1cc(SC2=C(O)C[C@@](CCc3ccc(O)cc3)(C(C)C)OC2=O)c(C(C)(C)C)cc1CO,fold resistance,PR-V32I I84V,-,HPLC / absorbance,6.9

For reference, 2 entries again:

compound	measure	changes	tested at	method	result
CC(C)[C@H](NC(=O)OCc1ccccc1)C(=O)NC(Cc1ccccc1)C(O)C(Cc1ccccc1)NC(=O)[C@@H](NC(=O)OCc1ccccc1)C(C)C	inhibition	-	0.01 µM	fluorescence	75%
CC(C)CN(C[C@@H](O)[C@H](Cc1ccccc1)NC(=O)[C@H](CC(N)=O)NC(=O)c1ccc2ccccc2n1)C(=O)NC(C)(C)C	fold resistance	PR-A71T V82A	-	HPLC	1.5

Rows are shuffled and stem from different studies. An empty or dashed field is not shown. Inhibition is in % at the dose shown (toxicity tests: loss of growth or viability).